Results taken from publication PMC7915185 (Molecules, 2021).

Protein sequences, listed by entry. Tags and fused reporters are not part of them. Residues count along the entry.
UniProt P03454, 18-565: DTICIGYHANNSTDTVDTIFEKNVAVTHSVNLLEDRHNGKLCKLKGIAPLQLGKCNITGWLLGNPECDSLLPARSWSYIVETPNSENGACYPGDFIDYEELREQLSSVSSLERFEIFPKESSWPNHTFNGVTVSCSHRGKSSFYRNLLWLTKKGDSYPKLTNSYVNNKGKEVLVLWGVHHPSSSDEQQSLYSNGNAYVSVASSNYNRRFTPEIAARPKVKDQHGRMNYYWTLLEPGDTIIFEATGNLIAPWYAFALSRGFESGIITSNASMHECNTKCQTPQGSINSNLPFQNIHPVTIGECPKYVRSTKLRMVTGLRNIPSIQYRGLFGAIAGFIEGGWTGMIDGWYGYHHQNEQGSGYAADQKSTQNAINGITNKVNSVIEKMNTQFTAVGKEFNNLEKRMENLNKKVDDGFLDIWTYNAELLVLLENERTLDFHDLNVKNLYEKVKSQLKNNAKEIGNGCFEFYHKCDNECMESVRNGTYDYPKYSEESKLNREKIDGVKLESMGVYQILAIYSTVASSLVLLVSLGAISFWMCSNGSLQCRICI

Molecular target: T1, H1N1 (A/WSN/1933) hemagglutinin (HA) protein (Influenza A virus, UniProt P03454)
T1 construct: purchased Sino Biological Inc. (Beijing, China)
Assay type: binding, influenza virus H1N1 (A/WSN/1933)
Conditions: pH 7.4

Q: For Sialylglycopeptide [SGP], which “thermodynamic dissociation constant KD” value is on record?
A: Its value is “no affinity”.
